We go through two compounds from article PMC11003484 (Journal of Enzyme Inhibition and Medicinal Chemistry, 2023).

Protein sequences, listed by entry. Tags and fused reporters are not part of them. Residues count along the entry.
UniProt P33424, 960-1204 limits assumed: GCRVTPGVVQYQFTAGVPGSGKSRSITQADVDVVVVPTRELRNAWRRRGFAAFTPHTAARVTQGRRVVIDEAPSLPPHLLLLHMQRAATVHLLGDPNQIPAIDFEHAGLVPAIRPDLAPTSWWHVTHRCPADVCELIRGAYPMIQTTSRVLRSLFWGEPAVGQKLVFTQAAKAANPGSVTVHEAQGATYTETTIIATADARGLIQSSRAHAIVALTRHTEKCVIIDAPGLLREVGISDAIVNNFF

What is called IC50 is the concentration at which inhibition is half-maximal.

The structures appear in SMILES notation. Structures were worked out from names or drawings and are uncertain.

This experiment concerns the target HEV helicase (Hepatitis E virus genotype 1, UniProt P33424). The settings on record: read-out: IC50 from NTPase inhibition assay of previously published compounds; Malachite green phosphatase assay; Supplementary Table 2; unit inferred.

Consider `Cc1ccccc1NC(=O)C(=O)NC(C)c1ccccc1` (centres unmarked), for which the IC50 was 1860 nM.
To `COc1ccc([N+](=O)[O-])cc1-n1c(C)cc(C=Nc2ccc(N3CCOCC3)cc2)c1C` belongs 2190 nM.
